{"source": "paper PMC9206510", "about": "“4′-Fluorouridine is an oral antiviral that blocks respiratory syncytial virus and SARS-CoV-2 replication” (Science (New York, N.y.), 2021)", "tested_on": "recRSV-A2line19F-[FireSMASh]", "format": "cell-based, respiratory syncytial virus", "conditions": "5 μM basolateral 4′-FlU"}
{"compound": "O=c1ccn([C@@H]2O[C@](F)(CO)[C@@H](O)[C@H]2O)c(=O)[nH]1", "note": "[4′-FlU, 4′-fluorouridine]", "values": [{"measurement": "apical virus titer", "value": 78.18, "unit": "TCID50"}]}
